Anti-infective test results gathered from many reports (values: NIAID ChemDB through PubChem).

ICn is the concentration giving n% inhibition. Blank or dashed fields: not listed here. Neighbouring rows are from separate reports. ECn: concentration that inhibits the pathogen or its effect by n%. Zones are inhibition diameters on agar.

SMILES,kind,organism,strain,cells,protein,method,conditions,endpoint,dose,result
Cc1cn([C@H]2CC[C@@H](CO)O2)c(=O)[nH]c1=O,culture,HIV-1,-,MT-4,-,RT activity,-,EC50,-,5.52 µM
C=CP(=O)(O)OC[C@H]1O[C@@H](n2cc(C)c(=O)[nH]c2=O)C[C@@H]1F,culture,HIV-1,-,H9,-,p24,-,EC50,-,24 µM
Cc1c([N+](=O)[O-])cc([N+](=O)[O-])c2oc3ccc([N+](=O)[O-])cc3c(=O)c12,culture,Mycobacterium tuberculosis,H37Rv,-,-,-,-,MIC,-,3 µg/mL
O=[N+]([O-])c1cc(Cn2nnc(-c3cc([N+](=O)[O-])cc([N+](=O)[O-])c3)n2)cc([N+](=O)[O-])c1,culture,Mycobacterium kansasii,My 235/80,-,-,-,7 d,MIC,-,1 µM
Cc1cn([C@H]2C[C@H](N=[N+]=[N-])[C@@H](COP(=O)(O)F)O2)c(=O)[nH]c1=O,culture,HIV-1,IIIB,CEM + CEM TK-,-,-,-,EC50,-,46 µM
Cc1cn([C@H]2C[C@H](N=[N+]=[N-])[C@@H](COP(=O)(O)F)O2)c(=O)[nH]c1=O,culture,HIV-1,-,PBMC,-,p24,-,EC50,-,0.00055 µM
O=[N+]([O-])c1ccc(S(=O)(=O)c2ccc([N+](=O)[O-])cc2[N+](=O)[O-])c([N+](=O)[O-])c1,target,HIV-1,-,-,Integrase,strand transfer,-,IC50,-,76.5 µM
CCOC(=O)P(=O)(O)OC[C@H]1O[C@@H](n2cc(C)c(=O)[nH]c2=O)C[C@@H]1F,culture,HIV-1,-,H9,-,p24,-,EC50,-,30 µM
C(/C=C/c1ccccc1)=NCCNCCN=C/C=C/c1ccccc1.[N-]=[N+]=[N][Hg][N]=[N+]=[N-],culture,Candida albicans,-,-,-,agar diffusion,-,zone,20000 µg/mL,27 mm
Nc1ccn([C@H]2CC[C@@H](CO)O2)c(=O)n1,culture,HIV-1,-,MT-4,-,p24,-,EC50,-,0.29 µM
Nc1ccn([C@H]2CC[C@@H](CO)O2)c(=O)n1,culture,HIV-1,-,MT-4,-,p24 / ELISA,-,EC50,-,0.29 µM
Cc1cn([C@H]2C[C@H](F)[C@@H](COP(=O)(O)C(F)F)O2)c(=O)[nH]c1=O,culture,HIV-1,-,H9,-,p24,-,EC50,-,8 µM
N#Cc1c(SCCBr)nsc1-c1ccccc1,culture,Adenovirus,TYPE 2,HEP-2,-,plaque count,-,EC50,-,>25 µg/mL
S=P1(Oc2ccccc2)NNP2(=NP(Cl)(Cl)=NP(Cl)(Cl)=N2)NN1,culture,Mycobacterium tuberculosis,H37Rv,-,-,BACTEC,-,MIC,-,64 µg/mL
Cc1cn([C@H]2C[C@H](F)[C@@H](CO)O2)c(=O)[nH]c1=O,culture,HIV-1,-,MT-4,-,p24 / ELISA,-,EC50,-,0.0069 µM

A second listing of 2 rows from above:

SMILES,kind,organism,strain,cells,protein,method,conditions,endpoint,dose,result
C=CP(=O)(O)OC[C@H]1O[C@@H](n2cc(C)c(=O)[nH]c2=O)C[C@@H]1F,culture,HIV-1,-,H9,-,p24,-,EC50,-,24 µM
Nc1ccn([C@H]2CC[C@@H](CO)O2)c(=O)n1,culture,HIV-1,-,MT-4,-,p24 / ELISA,-,EC50,-,0.29 µM